Results of unrelated studies side by side (data: NIAID ChemDB).

Common to all: growth or infection tests; agent: HIV-1; cell line: MT-4; measure: EC50

Lines come from different laboratories, so protocols vary. ECn: concentration that inhibits the pathogen or its effect by n%. Two numbers with a dash give a range or band. Blank or dashed fields: not listed here.

SMILES | strain or isolate | mutations | read by | setting | value
COc1cc([C@H]2c3c(cc(OC)c(OC)c3OC)C[C@H]3COC(=O)[C@@H]32)cc(C)c1OC | IIIB | - | cytopathic effect / MTT | - | 41 µM
C=CCN=C(N)c1ccc2nc(Cc3nc4ccc(C(N)=NCC=C)cc4[nH]3)[nH]c2c1 | IIIB | - | cytopathic effect / propidium iodide | - | 9.6 µM
COc1cc([C@H]2c3c(cc(OC)c(OC)c3OC)C[C@H]3CSC[C@@H]32)cc(OC)c1OC | IIIB | - | - | - | 1.03 µM
c1cc2nc(Cc3nc4ccc(C5=N[C@H]6CCCC[C@@H]6N5)cc4[nH]3)[nH]c2cc1C1=N[C@H]2CCCC[C@@H]2N1 | IIIB | - | cytopathic effect / propidium iodide | - | 3 µM
CCCCN1c2ccccc2C2C1C=C(C#N)C(=O)N2c1ccc([N+](=O)[O-])cc1 | LAI | - | cytopathic effect / MTT | - | <1 µM
CC(C)=CCN1Cc2cccc3[nH]c(=S)n(c23)C[C@@H]1C | IIIB | - | cytopathic effect / MTT | - | 0.18 µM
CCOC(=O)c1nc(-c2ccc(N3C(=O)C=CC4C3c3ccccc3N4C)cc2)no1 | LAI | - | cytopathic effect / MTT | - | >32 µM
Cc1ccc(-c2nnc3sc(C(CC(C)C)N4C(=O)c5ccccc5C4=O)nn23)cc1 | NNRTI-resistant N119 | RT-Y181C | - | - | >100 µM
CC(=O)N(C)CCN(C)c1nc(C(=O)NCc2ccc(F)cc2)c(O)c2ncccc12 | - | - | p24 | 50% human serum | <0.625 µM
COc1c2c(cc3c1[C@H](c1ccc(O)c(Oc4ccccc4)c1)[C@H]1C(=O)OC[C@@H]1C3)OCO2 | IIIB | - | cytopathic effect / MTT | - | 5.06 µM
Cc1cc(C#N)cc(C)c1Oc1nc(NC2CCN(Cc3ccc(S(C)(=O)=O)cc3)CC2)nc2sccc12 | IIIB | NNRTI-resistant (RT Y188L) | MTT | - | 0.0096 µM
O=C(OC1OC2COC(=O)c3cc(Oc4c(C(=O)OC5OC6COC(=O)c7cc(O)c(O)c(O)c7-c7c(cc(O)c(O)c7O)C(=O)OC6C(OC(=O)c6cc(O)c(O)c(O)c6)C5OC(=O)c5cc(O)c(O)c(O)c5)cc(O)c(O)c4O)c(O)c(O)c3-c3c(cc(O)c(O)c3O)C(=O)OC(C2O)C1O)c1cc(O)c(O)c(O)c1 | IIIB | - | cytopathic effect / MTT | - | >50 µg/mL
Nc1ccn([C@H]2CC[C@@H](CO)O2)c(=O)n1 | MN | - | XTT | - | 0.12 µg/mL
Cc1cc(/C=C/C#N)cc(C)c1Oc1nc(NC2CCN(Cc3cccnc3)CC2)nc2ccsc12 | IIIB | NNRTI-resistant (RT K103N) | MTT | - | 0.00443 µM
CN(C)C(=O)c1ccc(N2C(=O)C=CC3Nc4ccccc4C32)cc1 | LAI | - | cytopathic effect / MTT | - | >32 µM
Cc1cc(C#N)cc(C)c1Oc1nc(NC2CCC(NCc3cccc(C(F)(F)F)c3)CC2)nc2ccsc12 | IIIB | NNRTI-resistant (RT F227L V106A) | MTT | - | >707 µM
O=C(O[C@@H]1O[C@@H]2COC(=O)c3cc(O)c(O)c(O)c3-c3c(cc(O)c(O)c3O)C(=O)O[C@H]2[C@H](OC(=O)c2cc(O)c(O)c(O)c2)[C@H]1OC(=O)c1cc(O)c(O)c(O)c1Oc1cc2c(c(O)c1O)Oc1cc(cc(O)c1O)C(=O)O[C@@H]1O[C@@H]3COC(=O)c4cc(O)c(O)c(O)c4-c4c(cc(O)c(O)c4O)C(=O)O[C@H]3[C@H](OC(=O)c3cc(O)c(O)c(O)c3)[C@H]1OC2=O)c1cc(O)c(O)c(O)c1 | IIIB | - | cytopathic effect / MTT | - | >100 µg/mL
COC([C@@H]1OC[C@@](O)(CO)[C@H]1N=[N+]=[N-])n1ccc(N)nc1=O | IIIB | - | ELISA / antigen | - | >300 µM
CC(C)CN(C[C@@H](O)[C@H](Cc1ccccc1)NC(=O)O[C@H]1CO[C@H]2OCC[C@H]21)S(=O)(=O)c1ccc2c(c1)OCO2 | NL4-3 (SQV5) | L10I/G48V/I54V/L63P/A71V/G73S/V82T | p24 | - | 0.006 µM
O=CC(OC(=O)c1cc(O)c(O)c(O)c1Oc1cc2c(=O)oc3c(O)c(O)cc4c(=O)oc(c1O)c2c34)C(OC(=O)c1cc(O)c(O)c(O)c1)C1C(=O)Oc2cc(Oc3c(C(=O)O)cc(O)c(O)c3O)c(O)c(O)c2-c2c(cc(O)c(O)c2O)C(=O)OCC1O | IIIB | - | cytopathic effect / MTT | - | >50 µg/mL
CCC1CN=C(c2ccc3nc(Cc4nc5ccc(C6=NCC(CC)N6)cc5[nH]4)[nH]c3c2)N1 | IIIB | - | cytopathic effect / propidium iodide | - | 6.7 µM
O=C(O[C@@H]1[C@H](c2c(O)cc(O)c3c2O[C@H](c2ccc(O)c(O)c2)[C@H](OC(=O)c2cc(O)c(O)c(O)c2)C3)c2c(O)cc(O)c([C@H]3c4c(O)cc(O)cc4O[C@H](c4ccc(O)c(O)c4)[C@@H]3OC(=O)c3cc(O)c(O)c(O)c3)c2O[C@@H]1c1ccc(O)c(O)c1)c1cc(O)c(O)c(O)c1 | IIIB | - | cytopathic effect / MTT | - | >100 µg/mL
CN1c2ccccc2C2C1C=C(C(N)=O)C(=O)N2c1ccc([N+](=O)[O-])cc1 | LAI | - | cytopathic effect / MTT | - | 1–32 µM
Clc1ccc(-c2nnc3ssc4nnc(-c5ccc(Cl)cc5)n4n23)cc1 | IIIB | - | - | - | >100 µM
Nc1ncnc2c1ncn2[C@H]1CO[C@@H](CCP(=O)(O)O)O1 | - | - | cytopathic effect | - | 47 µg/mL
CC1(C)CN=C(c2ccc3nc(Cc4nc5ccc(C6=NCC(C)(C)CN6)cc5[nH]4)[nH]c3c2)NC1 | IIIB | - | cytopathic effect / propidium iodide | - | 9.6 µM
Cc1nc(CCCCCCC(=O)c2ccccc2)n2nc(NCCCCCCN)ccc12 | IIIB | - | RT activity | - | >10 µM
COc1ccc(-c2nnc(SC(c3ccccc3)c3ccccc3)n2N)cc1 | IIIB | - | - | - | >100 µM
COc1ccc([C@H]2c3c(cc4c(c3OC)OCO4)C[C@H]3CSC[C@@H]32)cc1OCc1ccccc1 | IIIB | - | cytopathic effect / MTT | - | 3.3 µM
O=C1O[C@H]2[C@H]3OC(=O)c4cc(O)c(O)c(O)c4-c4c(cc(Oc5c(C(=O)O[C@@H]6O[C@@H]7COC(=O)c8cc(O)c(O)c(O)c8-c8c(cc(O)c(O)c8O)C(=O)O[C@H]7[C@H](OC(=O)c7cc(O)c(O)c(O)c7)[C@H]6OC(=O)c6cc(O)c(O)c(O)c6)cc(O)c(O)c5O)c(O)c4O)C(=O)OC[C@H]2O[C@H](OC(=O)c2cc(O)c(O)c(O)c2)[C@H]3OC(=O)c2cc(O)c(O)c3c2C2C1=CC(=O)C(O)(O)C2(O)O3 | IIIB | - | cytopathic effect / MTT | - | >50 µg/mL
Cc1nc(CCCCCCC(=O)c2ccccc2)n2nc(NCCCCCCCCN)ccc12 | IIIB | - | RT activity | - | >10 µM
Cc1cc(/C=C/C#N)cc(C)c1Oc1nc(NC2CCN(Cc3cccc(C(N)=O)c3)CC2)nc2ccsc12 | IIIB | NNRTI-resistant (RT L100I) | MTT | - | 0.00512 µM
O=c1oc2c(O)c(O)cc3c(=O)oc4c(O)c(O)cc1c4c23 | IIIB | - | cytopathic effect / MTT | - | >100 µg/mL
COC([C@@H]1OC[C@@](O)(CO)[C@H]1N=[N+]=[N-])n1cnc2c(N)ncnc21 | IIIB | - | ELISA / antigen | - | >300 µM
Cc1cc(/C=C/C#N)cc(C)c1Oc1nc(NC2CCN(Cc3ccccc3F)CC2)nc2ccsc12 | IIIB | NNRTI-resistant (RT K103N) | MTT | - | 0.00688 µM
Cc1nc(CCCCCCC(=O)c2ccccc2)n2nc(NCCCCCCCCCCNCc3cn([C@H]4C=C[C@@H](CO)O4)c(=O)[nH]c3=O)ccc12 | IIIB | - | RT activity | - | 0.13 µM
COc1ccc(-c2nnc3sc(C(CC(C)C)N4C(=O)c5ccccc5C4=O)nn23)cc1 | IIIB | - | - | - | >100 µM
O=CC(OC(=O)c1cc(Oc2cc3c(c(O)c2O)Oc2cc(cc(O)c2O)C(=O)OC2OC4COC(=O)c5cc(O)c(O)c(O)c5-c5c(cc(O)c(O)c5O)C(=O)OC4C(OC(=O)c4cc(O)c(O)c(O)c4)C2OC3=O)c(O)c(O)c1O)C(OC(=O)c1cc(O)c(O)c(O)c1)C1OC(=O)c2cc(O)c(O)c(O)c2-c2c(cc(O)c(O)c2O)C(=O)OCC1O | IIIB | - | cytopathic effect / MTT | - | 21.7 µg/mL
Cc1nc(CCCCCCC(=O)c2ccccc2)n2nc(NCCCCCCNCc3cn([C@H]4C=C[C@@H](CO)O4)c(=O)[nH]c3=O)ccc12 | IIIB | - | RT activity | - | 0.09 µM
O=C(O[C@@H]1O[C@@H]2COC(=O)c3cc(O)c(O)c(O)c3-c3c(cc(O)c(O)c3O)C(=O)O[C@H]2[C@@H]2OC(=O)c3cc(O)c(O)c(O)c3-c3c(cc(O)c(O)c3O)C(=O)O[C@@H]12)c1cc(O)c(O)c(O)c1 | IIIB | - | cytopathic effect / MTT | - | >25 µg/mL
Cc1cc(/C=C/C#N)cc(C)c1Oc1nc(NC2CCN(Cc3cccc(Br)c3)CC2)nc2ccsc12 | IIIB | NNRTI-resistant (RT Y188L) | MTT | - | 0.165 µM

The first 2 rows once more:

SMILES	strain or isolate	mutations	read by	setting	value
COc1cc([C@H]2c3c(cc(OC)c(OC)c3OC)C[C@H]3COC(=O)[C@@H]32)cc(C)c1OC	IIIB	-	cytopathic effect / MTT	-	41 µM
C=CCN=C(N)c1ccc2nc(Cc3nc4ccc(C(N)=NCC=C)cc4[nH]3)[nH]c2c1	IIIB	-	cytopathic effect / propidium iodide	-	9.6 µM